The values that follow come from paper PMC5394239, “Cryo-EM structures of MERS-CoV and SARS-CoV spike glycoproteins reveal the dynamic receptor binding domains” (2017).

This experiment deals with MERS-CoV S2 subunit of the thrombin-treated S ectodomain (cleaved after R748) (MERS-CoV) (UniProt K9N5Q8). Description: cryo-EM structure.

For orientation: stoichiometry N means the number of molecules, sites or subunits per partner or assembly. The substance “MERS-CoV S2 subunit of the thrombin-treated S ectodomain (cleaved after R748) (from UniProt K9N5Q8 749-1294) (domain or fragment)” came in with a stoichiometry N of 3.
